# From US12708649B2, “Compositions and methods for improving skin health and for the treatment and prevention of diseases, disorders and conditions associated with fungi and other pathogenic microbes” (priority 2020, dated 2026)
# Where “and” joins values, the source holds several entries; their conditions need not be identical. Equal values may be shown once. Read-outs that look alike come from different tables or passages of the source. Where a SMILES comes first, the peptide text is derived from it.
# Tested on: Alcaligenes faecalis DB05646 / Malassezia furfur cultures
# Assay: Metabolite profile by LC-MS: DB05646 single culture and co-culture with M. furfur
# [1] = DB05646 single culture, Media 22, 48 hours
Compound,Fold of change Coculture vs DB05646 (DB05646-M. furfur co-culture),Fold of change Coculture vs M.furfur (DB05646-M. furfur co-culture) [fold],Fold of change Coculture vs Media (DB05646-M. furfur co-culture) [fold],Fold of change DB05646 vs Media [1],Fold of change M.furfur vs Media (M. furfur single culture),Fold of change Coculture vs DB05646 [fold],Fold of change Coculture vs M.furfur [fold],Fold of change Coculture vs Media [fold],Fold of change DB05646 vs Media [fold],Fold of change M.furfur vs Media [fold]
CC[C@@H]1C(=O)OC[C@@H]1Cc1cncn1C [Pilocarpine],0.5 fold,139.1,106.9,214.5 fold,0.8 fold,,,,,
NC(=O)[C@@H]1CCCN1 [Prolinamide],0.7 fold,123.7,13.8,20.6 fold,0.1 fold,,,,,
O=c1cc[nH]c(=O)[nH]1 [Uracil],78.1 fold,76.7,55.3,0.7 fold,0.7 fold,,,,,
Cc1c[nH]c(=O)[nH]c1=O [Thymine],11.5 fold,14.1,0.8,0.1 fold,0.1 fold,,,,,
CC(C)C[C@H](NC(=O)[C@@H](N)CO)C(=O)O [Ser-Leu] (H-Ser-Leu-OH),0.4 fold,3.7,6.9,17.6 fold,1.9 fold,,,,,
OC[C@H]1O[C@@H](n2cnc3c(O)ncnc32)[C@H](O)[C@@H]1O [Inosine],0.0 fold,0.0,0.1,303.5 fold,124.0 fold,,,,,
C=CCC1(C(C)C)C(=O)NC(=O)NC1=O [Aprobarbital],,,,,,0.3,11.7,11.2,39.0,1.0
CC(=O)N[C@@H](CCCNC(=N)N)C(=O)O [Acetylarginine],0.8 fold,2.2,13.6,17.5 fold,6.2 fold,,,,,
"Nc1c2c(O)nc(O)cc2nn1-c1ccccc1 [3-amino-2-phenyl-2H-pyrazolo[4,3-c]pyridine-4,6-diol]",0.5 fold,6.6,12.0,26.7 fold,1.8 fold,,,,,
CCN(CC)C(=O)c1cccnc1 [Nikethamide],,,,,,0.4,238.5,210.5,579.2,0.9
CC(O)CC(=O)O (stereo not drawn) [3-Hydroxybutyric acid],0.9 fold,17.3,0.2,0.2 fold,0.0 fold,,,,,
NCCc1c[nH]cn1 [Histamine],0.9 fold,2.2,193.9,227.9 fold,87.4 fold,,,,,
C=C1CC1C[C@H](NC(=O)CC[C@H](N)C(=O)O)C(=O)O (stereo partly drawn) [gamma-Glutamyl-3-(2-methylenecyclopropyl)alanine],,,,,,0.1,8.4,18.6,198.2,2.2
NCC(=O)N[C@@H](Cc1ccccc1)C(=O)O [Gly-Phe] (H-Gly-Phe-OH),0.3 fold,79.2,91.8,305.2 fold,1.2 fold,,,,,
CC(C)C[C@H](NC(=O)CC[C@H](N)C(=O)O)C(=O)O [L-gamma-Glutamyl-L-leucine],,,,,,4.6,4.0,15.3,3.3,3.8
CCC(=O)OC(C)C(=O)SC (stereo not drawn) [METHYLTHIO 2-(PROPIONYLOXY) PROPIONATE],0.8 fold,13.7,141.3,175.0 fold,10.3 fold,,,,,
CC(=O)NCCCCCN [N-Acetylcadaverine],0.9 fold,1.1,245.3,266.7 fold,215.9 fold,,,,,

Compound,Fold of change Coculture vs DB05646 (DB05646-M. furfur co-culture),Fold of change Coculture vs M.furfur (DB05646-M. furfur co-culture) [fold],Fold of change Coculture vs Media (DB05646-M. furfur co-culture) [fold],Fold of change DB05646 vs Media [1],Fold of change M.furfur vs Media (M. furfur single culture),Fold of change Coculture vs DB05646 [fold],Fold of change Coculture vs M.furfur [fold],Fold of change Coculture vs Media [fold],Fold of change DB05646 vs Media [fold],Fold of change M.furfur vs Media [fold]
Hexose dimer1,0.1 fold,0.2,1.1,8.2 fold,6.3 fold,,,,,
O=C(O)/C=C/c1c[nH]cn1 [Urocanic acid],,,,,,0.6,0.1,17.3,28.6,271.3
CC(=O)NCC[C@H](N)C(=O)O [(2S)-4-Acetamido-2-aminobutanoic acid],1.1 fold,4.0,157.1,146.2 fold,39.6 fold,,,,,
"CCC(O)C(O)C/C=C\C/C=C\CCCCCCCC(=O)O (stereo not drawn) [15,16-DiHODE]",,,,,,1.2,18.8,0.1,0.1,0.0
Nc1nc2c(ncn2[C@@H]2O[C@H](CO)[C@@H](O)[C@H]2O)c(=O)[nH]1 [Guanosine],0.0 fold,0.0,0.1,41.6 fold,21.1 fold,,,,,
"CN1C2CCC1[C@@H](C(=O)O)[C@@H](O)C2 (stereo partly drawn) [(2R,3S)-3-Hydroxy-8-methyl-8-azabicyclo[3.2.1]octane-2-carboxylic acid]",,,,,,0.2,53.1,45.7,216.8,0.9
CC(C)[C@H](N)C(=O)N1CC(O)C[C@H]1C(=O)O (stereo partly drawn) [Valyl-4-hydroxyproline],0.8 fold,5.4,4.7,5.8 fold,0.9 fold,,,,,
Cl.N#CC1(O)CN2CCC1CC2 (stereo not drawn) [3-hydroxyquinuclidine-3-carbonitrile hydrochloride],,,,,,0.5,45.7,11.7,21.9,0.3
CC(C)=CC(=O)NCC(=O)O [3-Methylcrotonylglycine],2.7 fold,1.3,21.0,7.8 fold,16.1 fold,,,,,
CC/C(=C(\c1ccc(O)cc1)c1ccc(OCCN)cc1)c1ccccc1 [(Z)-Norendoxifen],0.6 fold,4.2,13.3,22.4 fold,3.1 fold,,,,,
CC1NCCS1 (stereo not drawn) [2-Methylthiazolidine],0.8 fold,2.6,75.1,89.0 fold,28.6 fold,,,,,
CC(=O)N[C@@H](Cc1c[nH]c2ccccc12)C(=O)O [N-Acetyltryptophan],1.1 fold,12.4,0.2,0.2 fold,0.0 fold,,,,,
NCCCCN [Putrescine],0.7 fold,1.2,14.3,19.9 fold,12.1 fold,,,,,
O=C(O)CN1CCOCC1 [4-Morpholinylacetic acid],1.0 fold and 0.6 fold,,,196.9 fold and 109.4 fold,247.0 fold and 366.5 fold,,,,,
O=C(O)C1CCC=N1 (stereo not drawn) [1-pyrroline-5-carboxylic acid],0.7 fold,16.9,128.9,191.4 fold,7.6 fold,,,,,
NCCNCCO [Aminoethylethanolamine],0.7 fold,0.5,7.2,10.2 fold,15.4 fold,,,,,
CNc1ncnc2c1ncn2[C@@H]1O[C@H](CO)[C@@H](O)[C@H]1O [N(6)-Methyladenosine],0.0 fold,0.0,0.7,19.3 fold,16.3 fold,,,,,
